Anti-infective test results gathered from many reports (values: NIAID ChemDB through PubChem).

Common to all: whole-cell or culture tests; agent: Mycobacterium tuberculosis

Percent inhibition refers to the dose given; in toxicity tests it is the harm to the cells. ECn: concentration that inhibits the pathogen or its effect by n%. MIC bound: limit read from a one-dose screen. Conditions beyond the fields shown may differ between rows. MIC50, MIC90 and the like: level of inhibition, or share of isolates inhibited. a–b is a range or a potency band. An empty or dashed field is not shown.

SMILES,strain,cells,method,conditions,read-out,dose,result
CC(C)(O/N=C(/C(=O)N[C@@H]1C(=O)N2C(C(=O)[O-])=C(C[n+]3ccccc3)CS[C@H]12)c1csc(N)n1)C(=O)O,190 isolates,,,,MIC90,,>128 µg/mL
O=C1c2cc(Br)ccc2OP(=O)(c2ccccc2)N1c1ccc(C(F)(F)F)cc1,Praha 4,,,14 d,MIC,,1 µM
O=C(c1cn[nH]n1)c1ccc(Cl)cc1Cl,H37Rv,,,,inhibition,12.5 µg/mL,0%
O=c1oc2c(Cl)cc(Cl)cc2c(=O)n1-c1ccc(Cl)c(Cl)c1,CNCTC MY331/88,,,,MIC,,7.94 µM
O=C(NCc1ccc(F)cc1)c1nnc(-c2ccccn2)[nH]c1=O,H37Rv,,,,MIC,,>32 µg/mL
Cc1c(CN2CCN(C)CC2)cc(-c2ccccc2)n1-c1ccccc1Cl,103471,,,,MIC,,>16 µg/mL
C=CC(C)(O)CC/C=C(\C)CCCC(C)(O)CCCC(C)(O)CCCC(C)(O)CCCC(C)(O)CCCC(C)(O)CCCC(C)(O)CCC=C(C)C,H37Rv,,,,MIC,,15 µg/mL
c1ccc2c(c1)oc1cc3c(cc12)n1nnnc1c1cccn31,H37Rv,,BACTEC,,MIC bound,,>12.5 µg/mL
CO[C@H]1/C=C/O[C@@]2(C)Oc3c(C)c(O)c4c(=O)c(c5oc6cc(N7CCN(CC(C)C)CC7)cc(=O)c6nc5c4c3=C2O)NC(=O)/C(C)=C\C=C\[C@H](C)[C@H](O)[C@@H](C)[C@@H](O)[C@@H](C)[C@H](OC(C)=O)[C@@H]1C,20 strains,,,,MIC90,,0.035 µg/mL
Nc1ccc2nc3cc(Nc4ccccc4)c(=Nc4ccccc4)cc-3n(-c3ccccc3)c2c1,PZA-R,,,,MIC,,0.2 µg/mL
CC1(C)CC[C@]2(C(=O)O)CC[C@]3(C)C(=CCC4[C@@]5(C)CC[C@H](O)C(C)(C)C5CC[C@]43C)C2C1,H37Rv (rifampicin-resistant),,,,MIC,,50 µg/mL
O=C1c2cc(Cl)ccc2OP(=O)(c2ccccc2)N1c1ccc(Cl)c(Cl)c1,My 331/88,,,7 d,MIC,,2 µM
C[C@@H]1CN(c2c(F)c(N)c3c(=O)c(C(=O)O)cn(C4CC4)c3c2F)C[C@H](C)N1,20 strains,,,,MIC50,,≤0.01 µg/mL
Cc1c(CN2CCSCC2)cc(-c2ccccc2F)n1-c1ccccc1,103471,,,,MIC,,4 µg/mL
O=c1oc2c(Br)cc(Br)cc2c(=O)n1-c1cccc(Cl)c1,CNCTC MY331/88,,,,MIC,,7.94 µM
COC(=O)c1cnc(C(=O)c2ccccc2O)cn1,H37Rv,,resazurin,,inhibition,6.25 µg/mL,53%
C=CC(C)(O)CC/C=C(\C)CCCC(C)(O)CCCC(C)(O)CCC=C(C)C,H37Rv,,,,MIC,,>128 µg/mL
O=C(NCc1cccc(F)c1)c1nnc(-c2ccccn2)[nH]c1=O,H37Rv,,,,MIC,,>32 µg/mL
CCn1cc(C(=O)O)c(=O)c2cc(F)c(N3CCNCC3)cc21,190 isolates,,,,MIC90,,16 µg/mL
CO[C@H]1/C=C/O[C@@]2(C)Oc3c(C)c(O)c4c(O)c(cc(OCC(=O)O)c4c3C2=O)NC(=O)/C(C)=C\C=C\[C@H](C)[C@H](O)[C@@H](C)[C@@H](O)[C@@H](C)[C@H](OC(C)=O)[C@@H]1C,BCG,,,,MIC,,0.15 µg/mL
Cc1c(CN2CCSCC2)cc(-c2cccc3ccccc23)n1-c1ccccc1,103471,,,,MIC,,>16 µg/mL
CCOC(=O)c1cn(NC(N)=O)nn1,H37Rv,,,,MIC,,>12.5 µg/mL
O=C(Nc1ccccc1)c1ccccc1OP(=O)(Oc1ccccc1)Oc1ccccc1,My 331/88,,,7 d,MIC,,125 µM
NC(=O)c1cnc(C(=O)c2ccccc2O)cn1,H37Rv,,resazurin,,inhibition,6.25 µg/mL,2%
CC(C)[C@@H](C)CC[C@@H](C)[C@H]1CCC2C3=C[C@@H](O)[C@@]4(O)C[C@@H](O)CC[C@]4(C)C3CC[C@@]21C,H37Rv,,,,MIC,,51 µg/mL
CN(C)c1ccc(-n2c(=O)oc3c(Br)cc(Br)cc3c2=O)cc1,CNCTC MY331/88,,,,MIC,,>126 µM
O=[N+]([O-])c1ccc(-c2cnc3nc4[nH]c5ccccc5c4nn23)cc1,H37Rv,,BACTEC,,MIC bound,,≤12.5 µg/mL
O=c1[nH]c2c(Cl)cccc2c(O)c1N=Nc1ccc(Cl)c(Cl)c1,H37Rv,,resazurin,,MIC,,>6.25 µg/mL
NC(=O)c1cnc(C(=O)c2ccc(Cl)cc2)cn1,H37Rv,,resazurin,,EC50,,>6.25 µg/mL
O=C(Nc1ccc(C(F)(F)F)cc1)c1cc(Cl)ccc1OP(=O)(c1ccccc1)c1ccccc1,Praha 131,,,14 d,MIC,,1 µM
O=C(NCc1ccccc1Cl)c1nnc(-c2ccccn2)[nH]c1=O,H37Rv,,,,MIC,,>32 µg/mL
N#Cc1cnc(C(=O)c2ccccc2)cn1,H37Rv,,resazurin,,EC50,,>6.25 µg/mL
COc1ccc(-n2c(=O)oc3c(Cl)cc(Cl)cc3c2=O)cc1,CNCTC MY331/88,,,,MIC,,126 µM
NNC(=O)c1ccncc1,H37Rv,,fluorescence / absorbance,,EC50,,0.47 µM
O=C(c1ccccc1)c1cn(-c2ccc(Cl)cc2)nn1,H37Rv,,,,MIC,,>12.5 µg/mL
CN=C(NN(C)C)c1ccc(NC(=O)c2ccc(C(=O)Nc3ccc(C(=NC)NN(C)C)cc3)cc2)cc1,H37Rv,,BACTEC,,inhibition,12.5 µg/mL,98%
O=C(Oc1ccc(Cl)cc1)c1cn(-c2ccccc2)nn1,H37Rv,,,,inhibition,12.5 µg/mL,24%
CCCCCCCCCCCCCCC/C=C\C(=O)N(O)CCCC[C@H](NC(=O)[C@@H]1COC(c2ccccc2O)=N1)C(=O)O[C@@H](C)CC(=O)N[C@H]1CCCCN(O)C1=O,H37Rv,,,,EC50,,<12.5 µg/mL
O=c1[nH]c2c(Cl)c(Cl)ccc2c(O)c1N=Nc1cccc(Cl)c1,H37Rv,,resazurin,,inhibition,6.25 µg/mL,82%
O=C1c2cc(Cl)ccc2OP(=O)(c2ccccc2)N1c1ccc(C(F)(F)F)cc1,Praha 1,,,21 d,MIC,,1 µM
NC(=S)c1cnc(C(=O)c2ccc(Cl)cc2)cn1,H37Rv,,resazurin,,MIC,,>12.5 µg/mL
C[C@@H](O)[C@@H]1C(=O)N2C(C(=O)O)=C(SCCN)C[C@H]12,190 isolates,,,,MIC90,,>128 µg/mL
COc1ccc2[nH]c(=O)c(N=Nc3ccccc3)c(O)c2c1,H37Rv,,resazurin,,MIC,,>6.25 µg/mL
CC1COc2c(N3CCN(C)CC3)c(F)cc3c(=O)c(C(=O)O)cn1c23,190 isolates,,,,MIC90,,1 µg/mL
CCN(CC)c1ccc(N=C2C=C(C(=O)Nc3cccc(Cl)c3)C(=O)c3ccccc32)c(C)c1,H37Rv,,BACTEC,,MIC bound,,>12.5 µg/mL
CCn1cc(C(=O)O)c(=O)c2cc(F)c(-n3cccc3)cc21,190 isolates,,,,MIC90,,32 µg/mL
CC1C2c3ccccc3C(c3ccccc32)C1CN1C(CCO)COC1c1ccccc1,H37Rv,,BACTEC,,inhibition,12.5 µg/mL,31%
Cc1ccc(CNC(=O)c2nnc(-c3ccccn3)[nH]c2=O)cc1,H37Rv,,,,MIC,,32 µg/mL
CC1=NN(c2ccc(S(=O)(=O)O)cc2)C(=O)C1N=Nc1ccc(C)c(S(=O)(=O)Nc2ccccc2)c1,H37Rv,,BACTEC,,inhibition,12.5 µg/mL,-5%
O=C(c1cn(O)nn1)c1ccc(Br)cc1Br,H37Rv,,,,inhibition,12.5 µg/mL,0%
COc1ccc(C(C)NNC(=O)c2cc[n+]([B]C#N)cc2)cc1OC,,,BACTEC,,inhibition,0.5 µM,0%
O=c1[nH]c2c(Cl)cccc2c(O)c1N=Nc1cccc([N+](=O)[O-])c1,H37Rv,,resazurin,,MIC,,>6.25 µg/mL
Cc1ccc(NCCN(C)C)c2c(=O)c3ccc(O)cc3sc12,H37Rv,VERO,BACTEC,,MIC,,12.5 µg/mL
C=CC(C)(O)CC/C=C(\C)CCCC(C)(O)CCCC(C)(O)CCCC(C)(O)CCCC(C)(O)CCCC(C)(O)CCCC(C)(O)CCCC(C)(O)CCCC(C)(O)CCCC(C)(O)CCC=C(C)C,H37Rv,,,,MIC,,>128 µg/mL
O=C1c2c(Cl)c(Cl)c(Cl)c(Cl)c2C(=O)N1c1ncc([N+](=O)[O-])s1,H37Rv,,resazurin,,MIC bound,,>6.25 µg/mL
CCCCCCCCS(=O)(=O)CC(N)=O,H37Rv,,,,MIC,,≤6.25 µg/mL
CO[C@@H]1C[C@@H](C[C@H]2CC[C@H](C)[C@H]([C@@H](C)C(=O)O)O2)O[C@]2(O[C@](C)([C@H]3CC[C@@](C)([C@@H]4O[C@@H]([C@H]5O[C@@](O)(CO)[C@H](C)C[C@@H]5C)C[C@@H]4C)O3)C[C@H]2C)[C@@H]1C,H37Rv,,,,MIC,,3.1 µg/mL
NC(=S)c1cnc(C(=O)c2ccccc2O)cn1,H37Rv,,resazurin,,inhibition,6.25 µg/mL,60%
COc1c(OC/C=C(\C)CCC=C(C)C)ccc2ccc(=O)oc12,H37Rv,,BACTEC,,inhibition,128 µg/mL,98%
O=c1oc2c(Cl)cc(Cl)cc2c(=O)n1-c1cccc(Cl)c1,CNCTC MY331/88,,,,MIC,,7.94 µM
ClB1NB(Cl)NB(Cl)N1,H37Rv,,BACTEC,,MIC,,≥128 µg/mL
O=C(Nc1ccc(C(F)(F)F)cc1)c1cc(Br)ccc1OP(=O)(c1ccccc1)c1ccccc1,My 331/88,,,14 d,MIC,,2 µM
CCN(CC)C(=O)CNC(=O)c1c2nc3c(C(=O)NCC(=O)N(CC)CC)ccc(C)c3oc-2c(C)c(=O)c1N,H37Rv,,BACTEC,,MIC bound,,>12.5 µg/mL
CC1(C)S[C@@H]2[C@H](NC(=O)[C@H](C(=O)[O-])c3ccsc3)C(=O)N2[C@H]1C(=O)[O-].[Na+].[Na+],190 isolates,,,,MIC90,,>128 µg/mL
COC(=O)[C@@H]1[C@H]2C[C@H]3c4[nH]c5ccccc5c4CCN3C[C@@H]2CC[C@@H]1O,H37Rv,,BACTEC,,MIC,,≥128 µg/mL
O=c1[nH]c2c([N+](=O)[O-])cccc2c(O)c1N=Nc1ccc(Cl)cc1,H37Rv,,resazurin,,MIC,,<6.25 µg/mL
CC(O)C(NC(=O)C(CCCN)NC(=O)C(CC(O)CN=C(N)N)NC(=O)C(N)CCCN=C(N)N)C(=O)NC(CCCN)C(=O)NC(CC(O)CN=C(N)N)C(=O)NC(Cc1ccc(O)cc1)C(=O)O,H37Rv,,BACTEC,,inhibition,12.5 µg/mL,2%
CCCCCCCCCC(=O)N[C@H]1[C@H](Oc2c3cc4cc2Oc2ccc(cc2Cl)[C@@H](O[C@@H]2O[C@H](CO)[C@@H](O)[C@H](O)[C@H]2NC(C)=O)[C@@H]2NC(=O)[C@H](NC(=O)[C@@H]4NC(=O)[C@H]4NC(=O)[C@@H](Cc5ccc(c(Cl)c5)O3)NC(=O)[C@H](N)c3ccc(O)c(c3)Oc3cc(O)cc4c3)c3ccc(O)c(c3)-c3c(O[C@H]4O[C@H](CO)[C@@H](O)[C@H](O)[C@@H]4O)cc(O)cc3[C@H](C(=O)O)NC2=O)O[C@H](CO)[C@@H](O)[C@@H]1O,190 isolates,,,,MIC90,,64 µg/mL
C/C=C/C=c1\[nH]c(=O)/c(=C/c2ccccc2)[nH]c1=O,H37Rv,,BACTEC,,inhibition,12.5 µg/mL,-16%
CC1COc2c(N3CCN(C)CC3)c(F)cc3c(=O)c(C(=O)O)cn1c23,20 strains,,,,MIC50,,0.02–0.05 µg/mL
O=S1(=O)C[C@H](O)[C@@H](O)CS1,H37Rv,,BACTEC,,inhibition,12.5 µg/mL,78%
CCOC(=O)c1cn(-c2ccc(Cl)cc2)nn1,H37Rv,,,,MIC,,>12.5 µg/mL
Cc1ncc([N+](=O)[O-])n1CCSC#N,H37Rv,,resazurin,,MIC bound,,>6.25 µg/mL
CO[C@H]1/C=C/O[C@@]2(C)Oc3c(C)c(O)c4c(=O)c(c5oc6cc(N7CCN(C(C)C)CC7)cc(=O)c6nc5c4c3=C2O)NC(=O)/C(C)=C\C=C\[C@H](C)[C@H](O)[C@@H](C)[C@@H](O)[C@@H](C)[C@H](OC(C)=O)[C@@H]1C,H37Rv,,,,MIC,,0.017 µg/mL
O=C(NCCNCCNC(=O)C(F)(F)F)C(F)(F)F.O=C(O)C(F)(F)F,H37Rv,,resazurin,,inhibition,6.25 µg/mL,-3%
C=CC(C)(O)CC/C=C(\C)CC/C=C(\C)CCC(O)C(C)(O)CCCC(C)(O)CCCC(C)(O)CCCC(C)(O)CCCC(C)(O)CCCC(C)(O)CCC=C(C)C,H37Rv,,,,MIC,,44 µg/mL

A second listing of 8 rows from above:

{"SMILES": "O=c1oc2c(Br)cc(Br)cc2c(=O)n1-c1cccc(Cl)c1", "strain": "CNCTC MY331/88", "read-out": "MIC", "result": "7.94 µM"}
{"SMILES": "CC(C)[C@@H](C)CC[C@@H](C)[C@H]1CCC2C3=C[C@@H](O)[C@@]4(O)C[C@@H](O)CC[C@]4(C)C3CC[C@@]21C", "strain": "H37Rv", "read-out": "MIC", "result": "51 µg/mL"}
{"SMILES": "CC1(C)S[C@@H]2[C@H](NC(=O)[C@H](C(=O)[O-])c3ccsc3)C(=O)N2[C@H]1C(=O)[O-].[Na+].[Na+]", "strain": "190 isolates", "read-out": "MIC90", "result": ">128 µg/mL"}
{"SMILES": "c1ccc2c(c1)oc1cc3c(cc12)n1nnnc1c1cccn31", "strain": "H37Rv", "method": "BACTEC", "read-out": "MIC bound", "result": ">12.5 µg/mL"}
{"SMILES": "ClB1NB(Cl)NB(Cl)N1", "strain": "H37Rv", "method": "BACTEC", "read-out": "MIC", "result": "≥128 µg/mL"}
{"SMILES": "O=C1c2cc(Br)ccc2OP(=O)(c2ccccc2)N1c1ccc(C(F)(F)F)cc1", "strain": "Praha 4", "conditions": "14 d", "read-out": "MIC", "result": "1 µM"}
{"SMILES": "Cc1c(CN2CCSCC2)cc(-c2cccc3ccccc23)n1-c1ccccc1", "strain": "103471", "read-out": "MIC", "result": ">16 µg/mL"}
{"SMILES": "C=CC(C)(O)CC/C=C(\\C)CC/C=C(\\C)CCC(O)C(C)(O)CCCC(C)(O)CCCC(C)(O)CCCC(C)(O)CCCC(C)(O)CCCC(C)(O)CCC=C(C)C", "strain": "H37Rv", "read-out": "MIC", "result": "44 µg/mL"}